{"source": "PubChem BioAssay AID1259414, Drosophila RNAi Screening Center, 2018", "purpose": "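Host factors increasing or decreasing Wolbachia levels in cultured fly cells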 (primary screen)", "system": "Drosophila JW18 cells infected with Wolbachia", "reagent": "long dsRNA against Drosophila genes, 0.25 µg dsRNA per well of a 384-well plate", "time to read-out": "5 days", "challenge": "cells persistently infected with Wolbachia before knock-down; no added drug", "measured": "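Automated imaging of bacterial rRNA staining divided by host cell count, reported as plate-normalised robust z-score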", "reading the numbers": "Wolbachia per cell robust z: higher = more Wolbachia per host cell than the plate typical", "active means": "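Active if absolute robust z reaches 1.5 in two or more of three replicates, leaving out multi- or no-target dsRNAs, genes unexpressed in JW18 and A1 wells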", "note": "The screen tested about 24,000 reagents; below is a random part of those that have a named target and a result. Over the whole deposit, about 1,210 (5%) got an active call. 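Inactive calls also include excluded dsRNAs with several or no targets, genes unexpressed in JW18, and well A1, regardless of score.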 A plus sign joins genes that one reagent is predicted to hit. No sequences are given here."}
The opening 3 records, ahead of the listing:
{"predicted target": "CG8478", "amplicon": "DRSC16427", "Wolbachia per cell robust z, rep 1": -0.388, "Wolbachia per cell robust z, rep 2": -0.846, "Wolbachia per cell robust z, rep 3": -0.967, "outcome": "inactive"}
{"predicted target": "Ldh (Lactate dehydrogenase)", "amplicon": "DRSC11198", "Wolbachia per cell robust z, rep 1": 0.305, "Wolbachia per cell robust z, rep 2": 0.548, "Wolbachia per cell robust z, rep 3": 0.243, "outcome": "inactive"}
{"predicted target": "prg (piragua)", "amplicon": "DRSC03324", "Wolbachia per cell robust z, rep 1": 0.431, "Wolbachia per cell robust z, rep 2": 0.876, "Wolbachia per cell robust z, rep 3": 0.0724, "outcome": "inactive"}

Results, from the start:
{"predicted target": "CG8478", "amplicon": "DRSC16427", "Wolbachia per cell robust z, rep 1": -0.388, "Wolbachia per cell robust z, rep 2": -0.846, "Wolbachia per cell robust z, rep 3": -0.967, "outcome": "inactive"}
{"predicted target": "Ldh (Lactate dehydrogenase)", "amplicon": "DRSC11198", "Wolbachia per cell robust z, rep 1": 0.305, "Wolbachia per cell robust z, rep 2": 0.548, "Wolbachia per cell robust z, rep 3": 0.243, "outcome": "inactive"}
{"predicted target": "prg (piragua)", "amplicon": "DRSC03324", "Wolbachia per cell robust z, rep 1": 0.431, "Wolbachia per cell robust z, rep 2": 0.876, "Wolbachia per cell robust z, rep 3": 0.0724, "outcome": "inactive"}
{"predicted target": "SPoCk (Secretory Pathway Calcium atpase)", "amplicon": "DRSC11675", "Wolbachia per cell robust z, rep 1": 0.939, "Wolbachia per cell robust z, rep 2": -0.826, "Wolbachia per cell robust z, rep 3": 0.915, "outcome": "inactive"}
{"predicted target": "SPoCk (Secretory Pathway Calcium atpase)", "amplicon": "DRSC11706", "Wolbachia per cell robust z, rep 1": 1.59, "Wolbachia per cell robust z, rep 2": 1.34, "Wolbachia per cell robust z, rep 3": 1.1, "outcome": "inactive"}
{"predicted target": "SPoCk (Secretory Pathway Calcium atpase)", "amplicon": "DRSC11844", "Wolbachia per cell robust z, rep 1": 1.33, "Wolbachia per cell robust z, rep 2": -0.668, "Wolbachia per cell robust z, rep 3": -0.32, "outcome": "inactive"}
{"predicted target": "SPoCk (Secretory Pathway Calcium atpase)", "amplicon": "DRSC11845", "Wolbachia per cell robust z, rep 1": 0.872, "Wolbachia per cell robust z, rep 2": -0.0221, "Wolbachia per cell robust z, rep 3": -7.83, "outcome": "inactive"}
{"predicted target": "SPoCk (Secretory Pathway Calcium atpase)", "amplicon": "DRSC24007", "Wolbachia per cell robust z, rep 1": 0.0303, "Wolbachia per cell robust z, rep 2": 1.83, "Wolbachia per cell robust z, rep 3": 1.62, "outcome": "active"}
{"predicted target": "CG42376 + cin", "amplicon": "DRSC29294", "Wolbachia per cell robust z, rep 1": 1.5, "Wolbachia per cell robust z, rep 2": 0.816, "Wolbachia per cell robust z, rep 3": 0.642, "outcome": "inactive"}
{"predicted target": "w-cup (world cup)", "amplicon": "DRSC03048", "Wolbachia per cell robust z, rep 1": 1.1, "Wolbachia per cell robust z, rep 2": -0.809, "Wolbachia per cell robust z, rep 3": -3.79, "outcome": "inactive"}
{"predicted target": "lncRNA:CR43337 (long non-coding RNA:CR43337)", "amplicon": "DRSC07893", "Wolbachia per cell robust z, rep 1": -0.166, "Wolbachia per cell robust z, rep 2": -0.308, "Wolbachia per cell robust z, rep 3": 0.242, "outcome": "inactive"}
{"predicted target": "lncRNA:CR43337 (long non-coding RNA:CR43337)", "amplicon": "DRSC25126", "Wolbachia per cell robust z, rep 1": -0.177, "Wolbachia per cell robust z, rep 2": 3.08, "Wolbachia per cell robust z, rep 3": 0.849, "outcome": "inactive"}
{"predicted target": "Cpr67Fb (Cuticular protein 67Fb)", "amplicon": "DRSC10314", "Wolbachia per cell robust z, rep 1": -0.255, "Wolbachia per cell robust z, rep 2": 0.0349, "Wolbachia per cell robust z, rep 3": -0.519, "outcome": "inactive"}
{"predicted target": "Cpr67Fb (Cuticular protein 67Fb)", "amplicon": "DRSC29696", "Wolbachia per cell robust z, rep 1": -0.577, "Wolbachia per cell robust z, rep 2": 0.774, "Wolbachia per cell robust z, rep 3": -0.112, "outcome": "inactive"}
{"predicted target": "Mst84Dc (Male-specific RNA 84Dc)", "amplicon": "DRSC12599", "Wolbachia per cell robust z, rep 1": -0.00853, "Wolbachia per cell robust z, rep 2": 0.417, "Wolbachia per cell robust z, rep 3": -5.95, "outcome": "inactive"}
{"predicted target": "Dpck (Dephospho-CoA kinase)", "amplicon": "DRSC12575", "Wolbachia per cell robust z, rep 1": 0.364, "Wolbachia per cell robust z, rep 2": -0.743, "Wolbachia per cell robust z, rep 3": -2.07, "outcome": "inactive"}
{"predicted target": "Dpck (Dephospho-CoA kinase)", "amplicon": "DRSC41443", "Wolbachia per cell robust z, rep 1": 0.00889, "Wolbachia per cell robust z, rep 2": -1.75, "Wolbachia per cell robust z, rep 3": 0.193, "outcome": "inactive"}
{"predicted target": "CG12071", "amplicon": "DRSC22972", "Wolbachia per cell robust z, rep 1": -2.78, "Wolbachia per cell robust z, rep 2": -0.727, "Wolbachia per cell robust z, rep 3": 0.0653, "outcome": "inactive"}
{"predicted target": "CG14275", "amplicon": "DRSC02379", "Wolbachia per cell robust z, rep 1": -0.2, "Wolbachia per cell robust z, rep 2": 0.724, "Wolbachia per cell robust z, rep 3": -0.0851, "outcome": "inactive"}
{"predicted target": "CG14275", "amplicon": "DRSC27588", "Wolbachia per cell robust z, rep 1": 0.939, "Wolbachia per cell robust z, rep 2": -0.262, "Wolbachia per cell robust z, rep 3": -0.926, "outcome": "inactive"}
{"predicted target": "RYa (RYamide)", "amplicon": "DRSC40588", "Wolbachia per cell robust z, rep 1": 0.547, "Wolbachia per cell robust z, rep 2": 1.39, "Wolbachia per cell robust z, rep 3": 1.56, "outcome": "inactive"}
{"predicted target": "mt:ND4 (mitochondrial NADH-ubiquinone oxidoreductase chain 4)", "amplicon": "DRSC40581", "Wolbachia per cell robust z, rep 1": -0.0737, "Wolbachia per cell robust z, rep 2": 0.0679, "Wolbachia per cell robust z, rep 3": -0.449, "outcome": "inactive"}
{"predicted target": "Oseg2 (Outer segment 2)", "amplicon": "DRSC08343", "Wolbachia per cell robust z, rep 1": 0.543, "Wolbachia per cell robust z, rep 2": 0.785, "Wolbachia per cell robust z, rep 3": 0.35, "outcome": "inactive"}
{"predicted target": "Obp56f (Odorant-binding protein 56f)", "amplicon": "DRSC22270", "Wolbachia per cell robust z, rep 1": -0.457, "Wolbachia per cell robust z, rep 2": 0.148, "Wolbachia per cell robust z, rep 3": 0.347, "outcome": "inactive"}
